# Test results from patent US5414001A, “Antineoplastic pyrrolo[4,3,2-de]quinolin-8(1H)-ones” (American Cyanamid Company, priority 1993, dated 1995).
# What was measured:
# Test in all cases: Antibacterial agar diffusion assay
# Type in all cases: cell-based
# Settings in all cases: H = hazy zones
# E. coli 300 = system: E. coli 300; parameters: concentration or dose not given beside the values
# C. freundii 395 = system: C. freundii 395
# K. pneumoniae 53 = system: K. pneumoniae 53
smiles,measurement,setting,value
Cn1cc2c3c1C(=O)C(N)=CC3=NCC2.O=C(O)C(F)(F)F,ZONES OF INHIBITION,E. coli 300; 250 microgram/ml,10H
same,ZONES OF INHIBITION,E. coli 300; 1000 microgram/ml,16 MM
same,ZONES OF INHIBITION,C. freundii 395; 250 microgram/ml,10H
same,ZONES OF INHIBITION,C. freundii 395; 1000 microgram/ml,14 MM
same,ZONES OF INHIBITION,K. pneumoniae 53; 250 microgram/ml,13H
same,ZONES OF INHIBITION,K. pneumoniae 53; 1000 microgram/ml,17H
